Test results as given in the supplement of paper PMC9931576.
Numbering of substitutions follows the chain as printed. Human monoclonal antibodies against the spike receptor-binding domain (heavy:light variable regions). IC50 against pseudoviruses bearing the spike of naturally observed variants; lower = stronger; >10 µg/ml means not reached at the top dose. No active / inactive call. The stated detection limit is 0.0005 µg/ml; values near or below 0.001 µg/ml lie at the floor of the assay.

B1: BD56-126 (protein)
chain 1: QVTLKESGPVLVKPTETLTLTCTVSGFSLSNSRMGVSWIRQPPGKALEWLAHIFSNDEKSYRTSLKTRLTISKDTSKSQVVLTMTNMDAVDTATYYCARFLEGAWPGSGENWFDSWGQGSLVTVSS
chain 2: SYELTQPPSVSVSPGQTARIACSAGAFPNLYAYWYQQKPGQAPVLVMYKDTERPSGIPERFSGSSSGTTVTLTISGVQAEDEADYYCQSADSSGVVFGGGTRLTVL
B2: BD56-154 (protein)
chain 1: QVQLQESGPGLVKPSETLSLSCTVSGGSTSSNTSYWGWIRQPPGKGLEWIAIIDYRGSTYYSPSLKSRVTMSVDTSKNQISLKLSSVTAADTAVYYCARGIAASSTDDYYYYYGMDVWGQGTTVTVSS
chain 2: SYELTQPPSVSVSPGQSAKITCSGDSFPKQYAYWYQQKPGQAPVLVIYKDNERPSGIPERFSGSSSGTTVTLTISGVQAEDDADYYCHSADSTHTFWVFGGGTKLTVL
B3: BD56-149 (protein)
chain 1: EVQLVQSGAEVKKPGESLKISCKGSGYTFISYWIAWVRQTPGKGLEWMGIIYPGDSETRYSPSFQGQATISVDKSIRTAYLQWSNLKASDTAMYFCARHADPHYYYDGSGVFDSWGQGTMVTVSS
chain 2: SFELTQPPSVSVSPGQTASITCSGDKLGNNYASWYQQRPGQSPVVVIYEDTKRPSGIPERFAGSNSGNTATLTISETQAMDEADYYCQAWDSGTYVLFGGGTKLTVL
B4: BD56-153 (protein)
chain 1: QVQPVQSGAEVKKPGSSVKVSCKASGGTFSSYAITWVRQAPGHGLEWLGGIIPIFGPPNYAQKFQGRVTITADVSTSTAYMELSSLRSEDTAVYFCARGHYYDSTEGGIWFDSWGQGTLVTVSS
chain 2: QSALTQPASVSGSPGQSITISCTGTSSDVGGYHYVSWYQQHPGKAPKLMIYDVSHRSSGVSSRFSGSKSGNTASLTISGLQAEDEAHYYCTSYATSSTLLFGGGTKVTVL
B5: DH1044 (protein)
chain 1: QVQLVESGGGVVQPGRSLRLSCAASGFTFSSYGMHWVRQAPGKGLEWVAVISFDGSNKYYVDSVKGRFTISRDNSKNTLYLQMNSLRAEDTAVYYCAKDMHNDYGDYVSYYFYYGMDVWGQGTTVTVSS
chain 2: QSVLTQPPSVSAAPGQKVIISCSGSSSNIGNNYVSWYQQLPGTAPKLLIYENNKRPSGIPDRFSGSKSGTSATLGITGLQTGDEADYYCGTWDSSLRTDVFGGGTKLIVL
B6: BD56-144 (protein)
chain 1: QVQLQESGPGLVKPSQTLSLTCTVSGDSIERGGYYWSWIRQHPGMGLEWIGYIYYSGSTYQNPSLKSRVTISVDTSKNQFSLRLSSVTAADTAVYYCARVVDTSAQLDPWGQGTLVSVSS
chain 2: QSVLTQPPSVSAAPGQKVTVSCSGSSSNIGINSLSWYQQLPGTAPKLLIYDDNKRPSGIPDRFSGSKSGTSATLGISGLQTGDEADYYCGTWDDSLSAAVFGGGTKLTVL
B7: DH1179 (protein)
chain 1: QVQLVESGGGVVQPGRSLRLSCAASGFTFTNNAMHWVRQAPGKGLEWVAVISYDGSNRYYADSVKGRFTISRDNSKNTLYLQMNSLRAEDTAVYYCAREDYYDSSGSFDHWGQGILVTVSS
chain 2: QSALTQPASVSESPGQSITISCTGTSSDVGGYNYVSWYQQHPGKAPKLMTYDVSNRPSGVSNRFSGSKSGNTASLTISGLQAEDEADYYCSSYSSSSTWVFGGGTKLTVL
B8: BD56-119 (protein)
chain 1: EVQLLVSGGGLVQPGGSLRLSCAASGFTFSSCAMTWVRQAPGKGLECVSVIYGGGNSTYYADSVKGRFTIYRDTSKNRLYLQMNSLRADDTAIYYCAKSPQPRTTLELRGAPDYFDFWGQGTLVSVSS
chain 2: SYVLTQPPSVTVAPRQTARVTCGGDDIGSKSVHWYQQKPGQAPVLVIYYDNDRPSGIPERFSGSNSGNTATLTISRVEAGDEADYYCQVWDGSSAHFWVFGGGTKLTVL
B9: BD56-133 (protein)
chain 1: QVQLVQSGAEVKKPGASVKVSCKASGYSFSGYYMFWVRQAPGQGLEWMGRINPNNGGTDYAQKFEDRVTLTRDTSINTAYMELSRLRSDDTAVYYCAREPGYDILTDSYRDYWGQGTLVIVSS
chain 2: EIVMTQSPATLSVSPGEGATLSCRASQSVSSSLAWYQQKPGQAPRLLIYGASARATGIPARFSGSGSGTEFTLTISSLQSEDFTFYYCLQYNSWPPWTFGPGTKVEVK
B10: BD56-138 (protein)
chain 1: QVQLVQSGTEVKKPGASVKISCKASGYTFTNYALHWVRQAPGQRLEWMGWINAGNGGTKHSEKFQGRVTITRDTSASTAYMELSGLRPEDTALYYCARGPLIVGPKEVDFDYWGQGTLVIVSS
chain 2: SYVLTQPPSVSVAPGKTARMTCGGNEIGSKSVHWYQQKPGQAPALVIYYDNDRPSGIPERFSGSNSGNTATLTISRVEAGDEADYYCQVWDSSTVIFGGGTKLTVL
B11: BD56-143 (protein)
chain 1: QVQLVQSGAEVRKPGASMKVTCKASGYTFTNYAIHWVRQAPGQRLEWMGWINAGNGGTKHSEKFQGRVTISRDTSASTAYMELSGLRSADTAVYYCARGPLVVGPKEVDFDYWGRGTLVIVSS
chain 2: B10 chain 2 with K16R, N25Y, N51S, D52E, P54H, I96V, T101S
B12: DH1186 (protein)
chain 1: QVQLVQSGAEVKKPGSSVKVSCKASGGTFSNYAINWVRQAPGQGLEWMGRIIPIFGIANYAQEFQGRVTITADKSTSTVYMELSSLRSEDTAVYYCARANYYYESSGYYFDYWGQGTLVTVSS
chain 2: EIVLTQSPGTLSLSPGERATLSCRASQSVSSSFLAWYQQKPGQAPRLLIYGASSRATGIPDRFSGSGSGTDFTLTISRLEPEDFAVYYCLQYGSSRTFGQGTKVEIK

Tests used:
Assay in all cases: pseudovirus neutralization IC50; higher = weaker neutralization
[1] = molecular target: SARS-CoV-2 Omicron BA.1 spike pseudovirus
Method: (§1)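 Single-round VSV luciferase pseudovirus mixed with antibody dilutions for 1 h and put on Huh-7 cells for about a day; IC50 from the dose curve.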

[2] = molecular target: SARS-CoV-2 Omicron BA.2 spike pseudovirus
Method: as §1

[3] = molecular target: SARS-CoV-2 Omicron BA.2.75 spike pseudovirus
Method: as §1

[4] = molecular target: SARS-CoV-2 Omicron BA.5 spike pseudovirus
Method: as §1

[5] = molecular target: SARS-CoV-2 Omicron BQ.1.1 spike pseudovirus
Method: as §1

[6] = molecular target: SARS-CoV-2 Omicron XBB spike pseudovirus
Method: as §1

[7] = molecular target: SARS-CoV-2 early D614G spike pseudovirus
Method: as §1

Binder | pseudovirus neutralization IC50 [1] | pseudovirus neutralization IC50 [2] | pseudovirus neutralization IC50 [3] | pseudovirus neutralization IC50 [4] | pseudovirus neutralization IC50 [5] | pseudovirus neutralization IC50 [6] | pseudovirus neutralization IC50 [7]
B1 | > 10 µg/mL | > 10 µg/mL | > 10 µg/mL | > 10 µg/mL | > 10 µg/mL | > 10 µg/mL | > 10 µg/mL
B2 | 0.716 µg/mL | 0.846 µg/mL | 0.755 µg/mL | 0.725 µg/mL | 0.56 µg/mL | 1.92 µg/mL | 1.67 µg/mL
B3 | 0.195 µg/mL | 0.374 µg/mL | 0.211 µg/mL | 0.299 µg/mL | 5.73 µg/mL | 2.74 µg/mL | 0.371 µg/mL
B4 | 7.05 µg/mL | 6.99 µg/mL | 7.63 µg/mL | 7.91 µg/mL | > 10 µg/mL | > 10 µg/mL | 6.53 µg/mL
B5 | 0.085 µg/mL | 0.075 µg/mL | 0.0819 µg/mL | > 10 µg/mL | > 10 µg/mL | > 10 µg/mL | 0.0827 µg/mL
B6 | > 10 µg/mL | > 10 µg/mL | > 10 µg/mL | > 10 µg/mL | > 10 µg/mL | > 10 µg/mL | > 10 µg/mL
B7 | > 10 µg/mL | > 10 µg/mL | > 10 µg/mL | > 10 µg/mL | > 10 µg/mL | > 10 µg/mL | 0.0199 µg/mL
B8 | > 10 µg/mL | > 10 µg/mL | > 10 µg/mL | > 10 µg/mL | > 10 µg/mL | > 10 µg/mL | > 10 µg/mL
B9 | 3.12 µg/mL | 2.92 µg/mL | > 10 µg/mL | > 10 µg/mL | > 10 µg/mL | > 10 µg/mL | 0.518 µg/mL
B10 | > 10 µg/mL | > 10 µg/mL | > 10 µg/mL | > 10 µg/mL | > 10 µg/mL | > 10 µg/mL | > 10 µg/mL
B11 | > 10 µg/mL | > 10 µg/mL | > 10 µg/mL | > 10 µg/mL | > 10 µg/mL | > 10 µg/mL | > 10 µg/mL
B12 | > 10 µg/mL | > 10 µg/mL | > 10 µg/mL | > 10 µg/mL | > 10 µg/mL | > 10 µg/mL | 0.0106 µg/mL
